Measured values from several laboratories, pooled; numbers as filed in NIAID ChemDB.

Common to all: enzyme or target tests; organism: HIV-1; protein: Reverse transcriptase; read by: nucleotide incorporation / radiometric; measure: IC50

ICn is the concentration giving n% inhibition. An empty or dashed field is not shown. Conditions beyond the fields shown may differ between rows.

Cc1cc(C)c(-n2nnnc2SCC(=O)Nc2ccc(C)cc2Br)c(C)c1 ; value: <2 µM
CCN1c2ncc(CCOc3ccncc3)cc2C(=O)N(C)c2cccnc21 ; strain or isolate: WT ; value: <1 µM
Cc1cc(C)c(-n2nnnc2SCC(=O)Nc2sccc2C#N)c(C)c1 ; value: <2 µM
Cc1cn([C@H]2CC[C@@H](COP(=O)(O)OP(=O)(O)OP(=O)(O)O)O2)c(=O)[nH]c1=O ; changes: RT-N137A ; value: 0.1 µM
Cc1cc(C)c(-n2nnnc2SCC(=O)Nc2cccc(Cl)c2Cl)c(C)c1 ; value: <2 µM
CCC1(c2cccc(Cl)c2)Oc2ccccc2-n2cccc2C1=O ; strain or isolate: WT ; value: 0.036 µM
CCN1c2ncc(COc3ccnc(C(F)(F)F)c3)cc2C(=O)N(C)c2ccc(Cl)nc21 ; strain or isolate: WT ; value: <1 µM
Cc1cc(C)c(-n2nnnc2SCC(=O)Nc2ccc(F)cc2Cl)c(C)c1 ; value: <2 µM
CCC1(c2ccc(I)cc2)Oc2ccccc2-n2cccc2C1=O ; changes: RT-Y188L ; value: 27 µM
CCN1c2ncc(CCCc3ccccc3)cc2C(=O)N(C)c2cccnc21 ; strain or isolate: WT ; value: <1 µM
CCC1(c2ccc(CNc3ccccc3)cc2)Oc2ccccc2-n2cccc2C1=O ; strain or isolate: WT ; value: 0.09 µM
CCN1c2ncc(CSc3ncccn3)cc2C(=O)N(C)c2ccc(Cl)nc21 ; strain or isolate: WT ; value: <1 µM
CCC1(c2cccc(COc3ccccc3)c2)Oc2ccccc2-n2cccc2C1=O ; strain or isolate: WT ; value: 0.8 µM
CC(C)c1ccccc1-n1nnnc1SCC(=O)Nc1ccccc1Cl ; value: <2 µM
CCN1c2ncc(CCc3ccncc3)cc2C(=O)N(C)c2ccc(Cl)nc21 ; changes: RT-Y181C ; value: <1 µM
C=C(C)CCOCc1ccc(C2(CC)Oc3ccccc3-n3cccc3C2=O)cc1 ; changes: RT-V106A ; value: 3.6 µM
CCN1c2ncc(CCO)cc2C(=O)N(C)c2ccc(Cl)nc21 ; changes: RT-Y181C ; value: <1 µM
CCC1(c2ccc(COc3ccccc3Cl)cc2)Oc2ccccc2-n2cccc2C1=O ; changes: RT-L100I ; value: 1.4 µM

2 of the rows above, restated:

structure	changes	strain or isolate	value
CCN1c2ncc(CCCc3ccccc3)cc2C(=O)N(C)c2cccnc21		WT	<1 µM
CCN1c2ncc(CCOc3ccncc3)cc2C(=O)N(C)c2cccnc21		WT	<1 µM